Here are results for 2 molecules from publication PMC4644190, “Optimizing Nanoplasmonic Biosensor Sensitivity with Orientated Single Domain Antibodies” (Plasmonics (Norwell, Mass.), 2015).

This assay concerns the target ricin (Ricinus communis (species ; …, UniProt P02879). Description: LSPR imaging.

B1: C8-zip (genetic fusion of the C8 sdAb with a positively charged leucine zipper) (VHH)
VHH: EVQLQASGGGLVQGGDSLRLSCAASGRTLGDYGVAWFRQAPGKEREFVSVISRSTIITDYANSVKGRFTISRDNAKNAVYLQMNSLKPEDTAVYYCAVIANPVYATSRNSDDYGHWGQGTQVTVSS
For B1, the “LSPRi saturation response to 100 nM ricin, relative to the C8 surface” value turned out to be 104 % greater.

B2:  (VHH)
VHH: EVQLQASGGGLVQDGGSLRLSCAVAGRPLSDYGVGWFRQASGKEREFVAVISGSGIVTDYANSVKGRFTISRDVAKNVVHLQMNSLKPEDTAVYYCAALTNPVYAASRNSNDYGYWGQGTQVTVSS
For B2, the binding result was “binds”.
